# Values from PubChem BioAssay AID504761 (Drosophila RNAi Screening Center, 2011)
# Test: 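Fly genes whose silencing reduces dengue virus type 2 infection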 (primary screen)
# Cells: D.Mel-2 cells from Drosophila
# Reagents: long dsRNA against Drosophila genes
# Challenge: infection with dengue virus type 2; dose and infection time not stated
# Measured: 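Per well on two replicate plates, imaging gave the percent of cells positive for viral envelope protein, ranked by infection, and a nuclear count of cells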
# Scale: infection score: higher = more virus-infected cells; cell count: higher = more cells in the well
# Rule for the call: 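Low infection ranks in the two replicates (chance level up to 0.065) followed by a retest with a 1.5-fold or larger significant decrease, p below 0.05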
# Calls: active = confirmed: knock-down lowers infection; inactive = not picked or not confirmed
# The deposit covers about 22,000 reagents; this is a random part of those that have a named target and a result. In the full data, 116 (0.52%) got an active call. 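Calls depend on retest data that are not deposited; infection was ranked per plate without normalising between plates; the unit of the infection score is not given.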 Raw values are not corrected between plates. The numbers tell different reagents against one gene apart. The record does not give: the amount of reagent, the time to read-out.
Gene,dsRNA no.,"infection score, replicate 1","infection score, replicate 2","cell count, replicate 1","cell count, replicate 2",call
"mAChR-A (muscarinic Acetylcholine Receptor, A-type)",1,4.41,9.8,6433,5580,inactive
"mAChR-A (muscarinic Acetylcholine Receptor, A-type)",2,21.3,21.6,5710,6381,inactive
Acp76A (Accessory gland protein 76A),1,5.48,14.4,6053,5451,inactive
Acp76A (Accessory gland protein 76A),2,6.83,9.8,5136,5237,inactive
Spred (Sprouty-related protein with EVH-1 domain),1,7.79,10.8,6355,6168,inactive
Spred (Sprouty-related protein with EVH-1 domain),2,38.8,6.79,5207,2004,inactive
su(r) (suppressor of rudimentary),1,1.49,7.64,6734,6990,inactive
CG15742,1,1.34,1.5,7007,6863,inactive
CG15742,2,24.7,22.7,5720,4117,inactive
Ehbp1 (Eps15 homology domain containing protein-binding protein 1),1,4.67,5.4,6275,6182,inactive
Ehbp1 (Eps15 homology domain containing protein-binding protein 1),2,12.5,6.52,6229,6301,inactive
osi (orsai),1,3.81,2.98,6412,6575,inactive
CG31041,1,0.14,0.03,6526,6686,inactive
CG32112,1,3.86,2.36,5987,6445,inactive
rdgB (retinal degeneration B),1,4.2,1.65,5433,6261,inactive
rdgB (retinal degeneration B),2,10.6,17.7,6569,6004,inactive
AttD (Attacin-D),1,3.24,12.5,6697,5609,inactive
CG14854,1,5.91,10.8,6729,6547,inactive
"Arpc4 (Actin-related protein 2/3 complex, subunit 4)",1,12.4,17.3,5454,5385,inactive
"Arpc4 (Actin-related protein 2/3 complex, subunit 4)",2,10.3,8.51,5599,2810,inactive
Ir7d (Ionotropic receptor 7d),1,6.42,5.43,5949,6132,inactive

Targets listed so far whose target name starts with E or e (2):
Gene,dsRNA no.,"infection score, replicate 1","infection score, replicate 2","cell count, replicate 1","cell count, replicate 2",call
Ehbp1 (Eps15 homology domain containing protein-binding protein 1),1,4.67,5.4,6275,6182,inactive
Ehbp1 (Eps15 homology domain containing protein-binding protein 1),2,12.5,6.52,6229,6301,inactive

Next entries:
Gene,dsRNA no.,"infection score, replicate 1","infection score, replicate 2","cell count, replicate 1","cell count, replicate 2",call
CG11638,1,7.33,0.57,4377,6505,inactive
CG11638,2,3.42,0.72,5031,6543,inactive
mil (milkah),1,19.3,26.7,5379,3864,inactive
Hexo1 (Hexosaminidase 1),1,2.22,0.98,6172,6014,inactive
CG11380,1,2.25,4.26,6809,6193,inactive
CG11380,2,27.8,26.1,6110,4268,inactive
CG12983,1,6.19,4.48,6676,6402,inactive
CG11379,1,7.1,0.82,5856,6983,inactive
Galphai (G protein alpha subunit i),1,9.78,7.67,1432,4420,inactive
Galphai (G protein alpha subunit i),2,11.4,3.65,3144,1370,inactive
CG2736,1,14.8,32.3,6352,5187,inactive
gig (gigas),1,11.3,14.9,5081,4403,inactive
gig (gigas),2,22.4,10.4,4486,4910,inactive
ac (achaete),1,6.39,7.73,5992,2108,inactive
ac (achaete),2,6.67,15.7,2698,4254,inactive
Pif1A (PFTAIRE-interacting factor 1A),1,15.5,1.61,6248,6207,inactive
CG5506,1,0.97,2.64,6370,6641,inactive
CG43996,1,0.6,3.41,6459,6836,inactive
CG43996,2,4.07,4.57,6394,6481,inactive
Polr2I (RNA polymerase II subunit I),1,35.8,16.8,4935,5423,inactive
CG4866,1,20.2,10.4,5813,5607,inactive
elB (elbow B),1,3.98,1.11,5472,5395,inactive
elB (elbow B),2,6.72,2.1,6071,5810,inactive
CG11263,1,0.68,0.76,6326,6613,inactive
CG9875,1,11.5,19,6007,5845,inactive
GstE2 (Glutathione S transferase E2),1,10.5,9.89,2144,3709,inactive
GstE2 (Glutathione S transferase E2),2,11.3,6.05,6422,6285,inactive
CG10195,1,5.47,4.8,6073,4933,inactive
CG8851,1,2.02,4.39,6348,6375,inactive
CG8851,2,10.9,8.86,5430,5170,inactive
CG3650,1,12.6,13.6,5268,6521,inactive
CG3650,2,5.38,17.3,5163,5940,inactive
Nf1 (Neurofibromin 1),1,3.91,3.64,6734,6229,inactive
Nf1 (Neurofibromin 1),2,29.7,9.42,5684,6654,inactive
Cyp309a2 (Cytochrome P450 309a2),1,6.27,3.44,6718,6389,inactive
Cyp309a2 (Cytochrome P450 309a2),2,43.2,16.4,5323,6588,inactive
Cda9 (Chitin deacetylase-like 9),1,5.13,9.3,6358,6378,inactive
